Measured values from several laboratories, pooled; numbers as filed in NIAID ChemDB.

All rows: target-level tests; organism: HIV-1; protein: Reverse transcriptase; read by: nucleotide incorporation; measure: IC50

Conditions beyond the fields shown may differ between rows. Blank or dashed fields: not listed here. ICn is the concentration giving n% inhibition. a–b is a range or a potency band.

structure	strain or isolate	changes	value
COc1cc([C@H]2c3c(cc(OC)c(OC)c3OC)C[C@H]3CSC[C@@H]32)cc(OC)c1OC			3.6 µM
O=C(Nc1cc(C(=O)Nc2ccc(S(=O)(=O)O)cc2)cc(C(=O)Nc2ccc(S(=O)(=O)O)cc2)c1)Nc1cc(C(=O)Nc2ccc(S(=O)(=O)O)cc2)cc(C(=O)Nc2ccc(S(=O)(=O)O)cc2)c1	IIIB		12 µg/mL
O=C(O[C@@H]1Cc2c(O)cc(O)cc2O[C@@H]1c1ccc(O)c(O)c1)c1cc(O)c(O)c(O)c1			>20 µg/mL
Cc1cn([C@H]2C[C@H](F)[C@@H](COP(=O)(O)OP(=O)(O)OP(=O)(O)O)O2)c(=O)[nH]c1=O	IIIB		0.123 µM
O=C(Nc1cc(C(=O)Nc2ccc(S(=O)(=O)O)c3cc(S(=O)(=O)O)cc(S(=O)(=O)O)c23)ccc1F)Nc1cc(C(=O)Nc2ccc(S(=O)(=O)O)c3cc(S(=O)(=O)O)cc(S(=O)(=O)O)c23)ccc1F	IIIB		12 µg/mL
COc1cccc(S(=O)(=O)n2c(=O)[nH]c3ccc(Cl)cc32)c1		K103N	10 µM
Cc1cn(C2OC(CO[Si](C)(C)C(C)(C)C)C3(OS(=O)(=O)C=C3N)C2O[Si](C)(C)C(C)(C)C)c(=O)n(CC2CO2)c1=O			2.4 µM
CC(C)=CCC/C(C)=C/CC/C(C)=C/CC/C(C)=C/CC/C(C)=C/CC/C(C)=C/Cc1cc(O)ccc1O			6.7 µM
O=C(NC1CC1)c1[nH]c2ccc(Cl)cc2c1S(=O)(=O)c1ccccc1			0.003–0.035 µM
O=S(=O)(O)c1cc(S(=O)(=O)O)c2c(Nc3ccnc4cc(Cl)ccc34)ccc(S(=O)(=O)O)c2c1	IIIB		100 µg/mL
Cc1cn([C@@H]2O[C@H](COP(=O)(O)OP(=O)(O)OP(=O)(O)O)C[C@@H]2F)c(=O)[nH]c1=O			2.22 µM
O=C(CNc1ccc(C(=O)Nc2cc(S(=O)(=O)O)cc3cc(S(=O)(=O)O)cc(S(=O)(=O)O)c23)cc1)CNc1ccc(C(=O)Nc2cc(S(=O)(=O)O)cc3cc(S(=O)(=O)O)cc(S(=O)(=O)O)c23)cc1	IIIB		42 µg/mL
CC1=C(C(=O)Nc2ccc(Cl)c(C(=O)OC(C)C)c2)SCCO1		RT-E138K	3.6 µM
Cc1c(Cc2ccccc2)nc(OC2CCCC2)[nH]c1=O			4 µM
O=C(NCc1ccccn1)c1[nH]c2ccc(Cl)cc2c1Sc1ccccc1			0.003–0.035 µM
O=C(OCC1O[C@@H](O)C(O)(COC(=O)c2cc(O)c(O)c(O)c2)C1OC(=O)c1cc(O)c(O)c(O)c1)c1cc(O)c(O)c(O)c1			>20 µg/mL
CC(C)=CCN1Cc2cccc3[nH]c(=S)n(c23)C[C@@H]1C			0.126 µM
COc1ccc2nc(N/N=C/c3ccc(F)cc3)cc(C)c2c1			0.97 µM
CCCOC(=O)N1c2ccc([N+](=O)[O-])cc2C=CC1C#N		RT-P236L	12.6 µM
O=C(Nc1ccc(-c2ccc(C(=O)Nc3ccc(S(=O)(=O)O)c4cc(S(=O)(=O)O)cc(S(=O)(=O)O)c34)cc2)cc1)Nc1ccc(-c2ccc(C(=O)Nc3ccc(S(=O)(=O)O)c4cc(S(=O)(=O)O)cc(S(=O)(=O)O)c34)cc2)cc1	IIIB		46 µg/mL
CC(C)=CCOc1cc(NC(=S)c2ccoc2C)ccc1Cl			0.021 µM
CC(C)OC(=O)N1c2ccccc2C=CC1C#N			7.4 µM
C/C=C/CSc1cc(NC(=S)c2ccoc2C)ccc1Cl			0.118 µM
COC(=O)N1c2ccccc2C=CC1C#N			>50 µM
CCn1c2cc(=NN=[N-])ccc-2[n+](C)c(=O)c2cccnc21		RT-Y188L	7.4 µM
O=c1[nH]c(=O)n([C@H]2C[C@H](O)[C@@H](COP(=O)(O)OP(=O)(O)OP(=O)(O)O)O2)cc1/C=C/Br			3.58 µM
O=C(O[C@@H]1O[C@@H]2COC(=O)c3cc(O)c(O)c(O)c3-c3c(cc(O)c(O)c3O)C(=O)O[C@H]([C@H]1O)[C@@H]2O)c1cc(O)c(O)c(O)c1			>20 µg/mL
CCn1cc(C(=O)O)c(=O)c2cc(F)c(N3CCN(c4ccccc4OC)CC3)c(OC(F)F)c21			>250 µM
CCc1cc(NCc2nc3c(C)ccc(C)c3o2)c(=O)[nH]c1C		RT-Y181F	0.0235 µM
COc1cc(C)cc2c(-c3c(O)cc(O)c4c3C[C@H](C)N[C@H]4C)cc(-c3cc(-c4c(O)cc(O)c5c4C[C@H](C)N[C@H]5C)c4cc(C)cc(OC)c4c3O)c(O)c12			1 µM
COc1ccc2c(N/N=C/c3cccc([N+](=O)[O-])c3)cc(C)nc2c1			0.45 µM
CCOC(=O)N1c2ccc(OC)cc2C=CC1C#N			26.9 µM
O=C(O)C[C@@H]1C(=O)O[C@H]2[C@@H]3OC(=O)c4cc(O)c(O)c(O)c4-c4c(cc(O)c(O)c4O)C(=O)OC[C@H]2O[C@@H](OC(=O)c2cc(O)c(O)c(O)c2)[C@@H]3OC(=O)c2cc(O)c(O)c3c2[C@H]1[C@H](O)C(=O)O3			<20 µg/mL
N#CC1C=Cc2ccccc2N1C(=O)Oc1ccccc1			>50 µM
O=C(O)C1=C[C@@H](O)[C@@H](O)[C@H](OC(=O)c2cc(O)c(O)c(O)c2)C1			>20 µg/mL
CCCCCCCCC(O)C(=O)O[C@H]1CC(C)(C)[C@@H]2CC=C(C=O)C3[C@@H](O)OC(=O)[C@@]32[C@H]1O			>223 µM
Cc1cn(C2OC(CO[Si](C)(C)C(C)(C)C)C3(OS(=O)(=O)C=C3N)C2O[Si](C)(C)C(C)(C)C)c(=O)n(CCCNC(=O)c2ccc(N=[N+]=[N-])cc2O)c1=O			0.4 µM
CC(C)COC(=O)N1c2ccccc2C=CC1C#N		RT-P236L	4.9 µM
O=C(CCc1ccc(O)c2c1[C@H](C(=O)O[C@H](Cc1ccc(O)c(O)c1)C(=O)[O-])[C@@H](c1ccc(O)c(O)c1)O2)O[C@H](Cc1ccc(O)c(O)c1)C(=O)[O-].[Mg+2]			>20 µg/mL
Cc1cn([C@H]2CC[C@@H](COP(=O)(O)OP(=O)(O)OP(=O)(O)O)O2)c(=O)[nH]c1=O			<0.05 µM
O=C(O[C@@H]1O[C@@H]2COC(=O)c3cc(O)c(O)c(O)c3-c3c(cc(O)c(O)c3O)C(=O)O[C@@H]3[C@H]1OC(=O)c1cc(O)c(O)c4c1[C@@H]1C5(CC(=O)C(O)(O[C@]56C(=O)O[C@@H]5[C@@H](O)COC56O)[C@]1(O)O4)C(=O)O[C@@H]32)c1cc(O)c(O)c(O)c1			>20 µg/mL
CCOCn1c(Sc2ccccc2)c(CC)c(=O)[nH]c1=O		RT-Y188L	>50 µM
CC(C)Nc1cccnc1N1CCN(C(=O)c2cc3cccc(/C(O)=C/C(=O)C(=O)O)c3[nH]2)CC1			>100 µM
COc1ccc2nc(C)cc(N/N=C/c3cc(OC)c(OC)c(OC)c3)c2c1			0.06 µM
Cn1cnc(CCNC(=O)c2[nH]c3ccc(Cl)cc3c2S(=O)(=O)c2ccccc2)c1			0.003–0.035 µM
Cc1cn([C@H]2CC(F)(F)[C@@H](COP(=O)(O)OP(=O)(O)OP(=O)(O)O)O2)c(=O)[nH]c1=O			8.83 µM
CCOC(=O)c1cccn1S(=O)(=O)c1cc(Cl)ccc1N			0.4 µM
O=C(NC1CC1)c1[nH]c2ccc(Cl)cc2c1S(=O)c1ccccc1			0.003–0.035 µM
COc1ccc(-c2c3nc(c(-c4ccc(OC)cc4)c4ccc([nH]4)c(-c4ccc(OC)cc4)c4nc(c(-c5ccc(OC)cc5)c5ccc2[nH]5)C=C4)C=C3)cc1			>100 µM
CNC(=O)c1nc([C@]2(C)CSC([C@]3(C)CSC([C@]4(C)CSC(/C=C/c5ccccc5)=N4)=N3)=N2)oc1C			252 µM
O=C(Nc1cccc(C(=O)Nc2ccc(S(=O)(=O)O)c3cc(S(=O)(=O)O)cc(S(=O)(=O)O)c23)c1)Nc1cccc(C(=O)Nc2ccc(S(=O)(=O)O)c3cc(S(=O)(=O)O)cc(S(=O)(=O)O)c23)c1	IIIB		90 µg/mL
N#CC1C=Cc2ccccc2N1C(=O)c1ccc(Cl)cc1			<50 µM
Cc1cc(C#CCCCCCCC(=O)NCc2cn(C3C[C@H](O)[C@@H](COP(=O)(O)OP(=O)(O)OP(=O)(O)O)O3)c(=O)[nH]c2=O)cc(C)c1Oc1ccnc(Nc2ccc(C#N)cc2)n1			0.006 µM
CCOC(=O)c1cccn1S(=O)(=O)c1ccc2nc[nH]c2c1			3 µM
CCOC(=O)CSc1cc(NC(=S)c2ccoc2C)ccc1Cl			1.811 µM
Nc1ncnc2c1ncn2[C@H]1CC[C@@H](COP(=O)(O)OP(=O)(O)OP(=O)(O)O)O1			>100 µM
COc1cc(/C=N/Nc2cc(C)nc3cc(C(F)(F)F)ccc23)cc(OC)c1OC			1.32 µM
Cc1ccc(C(=O)Nc2cc(S(=O)(=O)O)ccc2S(=O)(=O)O)cc1NC(=O)c1cccc(NC(=O)Nc2cccc(C(=O)Nc3cc(C(=O)Nc4cc(S(=O)(=O)O)ccc4S(=O)(=O)O)ccc3C)c2)c1	IIIB		41 µg/mL
C=C1CCC[C@H]2[C@](C)(CC3=C(OC)C(=O)C=C(OC)C3=O)[C@@H](C)CC[C@]12C			35 µM
Cc1cn(C2OC(CO[Si](C)(C)C(C)(C)C)C3(OS(=O)(=O)C=C3N)C2O[Si](C)(C)C(C)(C)C)c(=O)n(/C=C\CO)c1=O			1.6 µM
COc1ccc([C@H]2c3c(cc4c(c3OC)OCO4)C[C@H]3CSC[C@@H]32)cc1OCc1ccccc1			1.7 µM
CCOC(=O)N1c2ccccc2C=CC1C#N			22 µM

The first 8 rows once more:

| structure | strain or isolate | changes | value |
|---|---|---|---|
| COc1cc([C@H]2c3c(cc(OC)c(OC)c3OC)C[C@H]3CSC[C@@H]32)cc(OC)c1OC |  |  | 3.6 µM |
| O=C(Nc1cc(C(=O)Nc2ccc(S(=O)(=O)O)cc2)cc(C(=O)Nc2ccc(S(=O)(=O)O)cc2)c1)Nc1cc(C(=O)Nc2ccc(S(=O)(=O)O)cc2)cc(C(=O)Nc2ccc(S(=O)(=O)O)cc2)c1 | IIIB |  | 12 µg/mL |
| O=C(O[C@@H]1Cc2c(O)cc(O)cc2O[C@@H]1c1ccc(O)c(O)c1)c1cc(O)c(O)c(O)c1 |  |  | >20 µg/mL |
| Cc1cn([C@H]2C[C@H](F)[C@@H](COP(=O)(O)OP(=O)(O)OP(=O)(O)O)O2)c(=O)[nH]c1=O | IIIB |  | 0.123 µM |
| O=C(Nc1cc(C(=O)Nc2ccc(S(=O)(=O)O)c3cc(S(=O)(=O)O)cc(S(=O)(=O)O)c23)ccc1F)Nc1cc(C(=O)Nc2ccc(S(=O)(=O)O)c3cc(S(=O)(=O)O)cc(S(=O)(=O)O)c23)ccc1F | IIIB |  | 12 µg/mL |
| COc1cccc(S(=O)(=O)n2c(=O)[nH]c3ccc(Cl)cc32)c1 |  | K103N | 10 µM |
| Cc1cn(C2OC(CO[Si](C)(C)C(C)(C)C)C3(OS(=O)(=O)C=C3N)C2O[Si](C)(C)C(C)(C)C)c(=O)n(CC2CO2)c1=O |  |  | 2.4 µM |
| CC(C)=CCC/C(C)=C/CC/C(C)=C/CC/C(C)=C/CC/C(C)=C/CC/C(C)=C/Cc1cc(O)ccc1O |  |  | 6.7 µM |